Compound potency records, mixed from different reports. Data source: NIAID ChemDB in PubChem.

Shared fields: growth or infection tests; species: Staphylococcus aureus

A number after MIC or MFC names an inhibition level or a share of isolates. Two numbers with a dash give a range or band. Lines come from different laboratories, so protocols vary. An empty or dashed field is not shown.

structure	read by	read-out	strain or isolate	result
Cc1c(N2CC[C@H](N)C2)c(F)cn2c(=O)c(C(=O)O)cc(C3CCCC3)c12		MIC	1775 (ciprofloxacin-resistant)	50 µg/mL
CC(C)c1c(O)c(C(=O)O)cc2c1CC[C@H]1C(C)(C)CCC[C@]21C		MIC		8 µg/mL
CCCCNC(=O)c1c(SSc2cccc(C(F)(F)F)c2C(=O)NCCCC)cccc1C(F)(F)F		MIC	ATCC 6538	50 µg/mL
CC(C)c1c(O)ccc2c1C[C@H](O)[C@H]1C(C)(C)CCC[C@]21C		MIC	Methicillin-resistant	>32 µg/mL
Cc1c(N2CCCC2)c(F)cn2c(=O)c(C(=O)O)cc(C3CC3)c12		MIC	NCTC10649	0.005 µg/mL
CC(C)c1c(O)ccc2c1[C@@](C)(O)C[C@H]1C(C)(C)CCC[C@]21C		MIC	Methicillin-resistant	8 µg/mL
Cc1c(N2CCC[C@@H](N)C2)c(F)cn2c(=O)c(C(=O)O)cc(C3CC3)c12		MIC	1775 (ciprofloxacin-resistant)	1.56 µg/mL
O=c1[nH]sc2cc(C(F)(F)F)ccc12		MIC	ATCC 6538	10 µg/mL
CN1CCN(c2c(Cl)cc3c(=O)c(C(=O)O)cn(C4CC4)c3c2F)CC1		MIC	422	0.025 µg/mL
Cc1c(N2C[C@@H]3C(N)[C@@H]3C2)c(F)cn2c(=O)c(C(=O)O)cc(C3CC3)c12		MIC	NCTC10649	0.05 µg/mL
CCCCn1sc2cccc(C(F)(F)F)c2c1=O		MIC	ATCC 6538	50 µg/mL
Cc1c(N2C[C@@H](F)[C@@H](C3(N)CC3)C2)c(F)c(N)c2c(=O)c(C(=O)O)cn([C@@H]3C[C@@H]3F)c12		MIC90	25 strains (ofloxacin-resistant)	0.25 µg/mL
Cc1c(N2Cc3cccnc3C2)c(F)cn2c(=O)c(C(=O)O)cc(C3CC3)c12		MIC	1775 (ciprofloxacin-resistant)	0.2 µg/mL
CCCCCCCCCC(=O)N[C@H]1[C@H](Oc2c3cc4cc2Oc2ccc(cc2Cl)[C@@H](O[C@@H]2O[C@H](CO)[C@@H](O)[C@H](O)[C@H]2NC(C)=O)[C@@H]2NC(=O)[C@H](NC(=O)[C@@H]4NC(=O)[C@H]4NC(=O)[C@@H](Cc5ccc(c(Cl)c5)O3)NC(=O)[C@H](N)c3ccc(O)c(c3)Oc3cc(O)cc4c3)c3ccc(O)c(c3)-c3c(O[C@H]4O[C@H](CO)[C@@H](O)[C@H](O)[C@@H]4O)cc(O)cc3[C@H](C(=O)O)NC2=O)O[C@H](CO)[C@@H](O)[C@@H]1O		MIC90	25 strains (methicillin-susceptible)	0.5 µg/mL
O=C(O)c1cn(C2CC2)c2c(F)c(N3CCNC(C4CCCCC4)C3)c(Cl)cc2c1=O		MIC	422	0.06 µg/mL
Cc1cc2c(c(C(C)C)c1O)CC[C@H]1C(C)(C)CCC[C@]21C		MIC		32 µg/mL
NC1CCN(c2nc3c(cc2F)c(=O)c(C(=O)O)cn3-c2ccc(F)cc2F)C1		MIC	NCTC10649	0.1 µg/mL
CN1CCN(c2c(F)cc3c(=O)c(C(=O)O)cn4c3c2SCC4CF)CC1		MIC90	30 strains	1 µg/mL
NC1CON(CCCO)C1=O		MIC		>2500 µM
CC(C)c1c(O)ccc2c1C(=O)C[C@H]1C(C)(C)CCC[C@]21C		MIC	Methicillin-resistant	>32 µg/mL
COc1c(O)cc2c(c1C(C)C)CC[C@H]1C(C)(C)CCC[C@]21C		MIC		>32 µg/mL
CCNCC1CCN(c2c(F)cc3c(=O)c(C(=O)O)cn(C(C)(C)C)c3c2F)C1		MIC		0.06 µg/mL
N[C@@H](C(=O)N[C@@H]1C(=O)N2C(C(=O)O)=C(Cl)CS[C@H]12)c1ccccc1		MIC90	30 strains	2 µg/mL
COc1ccc2c(c1C(C)C)[C@H](O)C[C@H]1C(C)(C)CCC[C@]21C		MIC	Methicillin-resistant	>32 µg/mL
CC(=O)NC[C@H]1CN(c2ccc(N3CCOCC3)c(F)c2)C(=O)O1		MIC50	Oxacillin-resistant	1–4 µg/mL
CN(C)[C@@H]1C(=O)C(C(N)=O)=C(O)[C@@]2(O)C(=O)C3=C(O)c4c(O)c(NC(=O)CN5CCOCC5)cc(F)c4C[C@H]3C[C@@H]12	agar diffusion	MIC	161-MRS tet	8 µg/mL
CC(=O)CN1CCN(c2c(Cl)cc3c(=O)c(C(=O)O)cn(C4CC4)c3c2F)CC1		MIC	133	0.25 µg/mL
CCCCn1sc2c(F)cccc2c1=O		MIC	ATCC 6538	40 µg/mL
CC1(C)S[C@@H]2[C@H](NC(=O)[C@H](N)c3ccc(O)cc3)C(=O)N2[C@H]1C(=O)O		MIC50	30 strains	0.25 µg/mL
O=c1[nH]sc2cccc(F)c12		MIC	ATCC 6538	25 µg/mL
COc1c(Br)cc2c(c1C(C)C)CC[C@H]1C(C)(C)CCC[C@]21C		MIC		>32 µg/mL
CCCN1CCN(c2cc(=O)c3nc4c(oc3c2)c2c(=O)c3c(O)c(C)c5c(c34)=C(O)[C@@](C)(O/C=C/[C@H](OC)[C@@H](C)[C@@H](OC(C)=O)[C@H](C)[C@H](O)[C@H](C)[C@@H](O)[C@@H](C)/C=C/C=C(/C)C(=O)N2)O5)CC1		MIC50	16 strains (methicillin- quinolone-resistant)	0.0039 µg/mL
COCCN1OCC(N)C1=O		MIC		>2500 µM
O=C(O)c1cn(C2CC2)c2c(Cl)c(N3CCNCC3)c(F)cc2c1=O		MIC	422	0.125 µg/mL
NC(=O)c1cccc(C(F)(F)F)c1SSc1c(C(N)=O)cccc1C(F)(F)F		MIC	ATCC 6538	50 µg/mL
COC[C@H](N)C1CCN(c2c(F)cn3c(=O)c(C(=O)O)cc(C4CC4)c3c2C)C1		MIC	1775 (ciprofloxacin-resistant)	0.05 µg/mL
CONC(=O)CN1OCC(N)C1=O		MIC		>2500 µM
Cc1onc(-c2ccccc2)c1C(=O)N[C@@H]1C(=O)N2[C@@H]1SC(C)(C)[C@@H]2C(=O)O		MIC50	24 strains (ofloxacin-susceptible)	64 µg/mL
CC(=O)Oc1ccc2c(c1C(C)C)C=C[C@H]1C(C)(C)CCC[C@]21C		MIC	Methicillin-resistant	>32 µg/mL
CCCCn1sc2cc(F)ccc2c1=O		MIC	ATCC 6538	50 µg/mL
CC1CN(c2c(F)cc3c(=O)c(C(=O)O)cn(C4CC4)c3c2Cl)CCN1		MIC	1756	0.06 µg/mL
CN[C@@H]1[C@H](O[C@H]2[C@H](O[C@H]3[C@H](O)[C@@H](O)[C@H](N=C(N)N)[C@@H](O)[C@@H]3N=C(N)N)O[C@@H](C)[C@]2(O)C=O)O[C@@H](CO)[C@H](O)[C@H]1O		MIC	MRSA	6.25 µg/mL
CO[C@H]1/C=C/O[C@@]2(C)Oc3c(C)c(O)c4c(=O)c(c5oc6cc(N7CCN(CC(C)C)CC7)cc(=O)c6nc5c4c3=C2O)NC(=O)/C(C)=C\C=C\[C@H](C)[C@H](O)[C@@H](C)[C@@H](O)[C@@H](C)[C@H](OC(C)=O)[C@@H]1C		MIC50	20 strains (methicillin-resistant)	0.0078 µg/mL
COc1c([N+](=O)[O-])cc2c(c1C(C)C)CC[C@H]1C(C)(C)CCC[C@]21C		MIC		>32 µg/mL
CC(C)c1c(O)ccc2c1[C@@H]1O[C@@H]1[C@H]1C(C)(C)CCC[C@]21C		MIC	Methicillin-resistant	32 µg/mL
CC(=O)CCN1CCN(c2c(Cl)cc3c(=O)c(C(=O)O)cn(C4CC4)c3c2F)CC1		MIC	1756	0.25 µg/mL
CC1COc2c(N3CCN(C)CC3)c(F)cc3c(=O)c(C(=O)O)cn1c23		MIC90	10 strains (oxacillin-resistant)	>16 µg/mL
NC1CON(Cc2ccccc2)C1=O		MIC		>2500 µM
CCCCNC(=O)c1cccc(F)c1SSc1c(F)cccc1C(=O)NCCCC		MIC	ATCC 6538	20 µg/mL
CN(C)c1ccc(O)c2c1C[C@H]1C[C@H]3[C@H](N(C)C)C(=O)C(C(N)=O)=C(O)[C@@]3(O)C(=O)C1=C2O		MIC90	25 strains (ofloxacin-resistant)	32 µg/mL
CC(C)c1c(O)c(C=O)cc2c1CC[C@H]1C(C)(C)CCC[C@]21C		MIC		8 µg/mL
CC1CN(c2c(Cl)cc3c(=O)c(C(=O)O)cn(C4CC4)c3c2F)CC(C)N1		MIC	422	0.25 µg/mL